Results of unrelated studies side by side (data: NIAID ChemDB).

All rows: tests on isolated targets

Conditions beyond the fields shown may differ between rows. An empty or dashed field is not shown. Percent inhibition refers to the dose given; in toxicity tests it is the harm to the cells. ICn: concentration for n% inhibition.

smiles | protein | tested at | species | read by | strain or isolate | measure | value
Cc1c(NC(=O)OC(C)(C)C)ccc2nc(N3CCCC3(OCc3ccccc3)C(=O)N(C)CCc3ccccn3)oc(=O)c12 | Protease | - | Herpes simplex virus 1 | - | - | IC50 | >10 µM
COc1ccc([N+](=O)[O-])cc1NC(=S)NNC(=S)N/N=C(\C)c1ccccn1 | Ribonucleotide reductase | - | Herpes simplex virus 1 | - | - | IC50 | >5 µM
O=c1[nH]c(=O)n([C@@H]2O[C@H](CO)[C@@H](O)[C@@H]2F)cc1/C=C/I | Thymidine kinase | 200 µM | Herpes simplex virus 2 | - | G | inhibition | 3.8%
C[C@@H]1CCC[C@H](C)C1NC(=O)N[C@H](C(=O)C[C@@H](CC(=O)C(C)(C)C)C(=O)N[C@H](C(=O)N[C@H](CO)CC(C)(C)C)C1(C(=O)O)CCCC1)C(C)(C)C | Ribonucleotide reductase | - | Herpes simplex virus 2 | radioligand binding / binding | - | IC50 | <0.001 µM
CCN(C(=O)N(C)CCc1ccccn1)c1nc2ccc(NC(=O)CCCNC(=O)c3ccccn3)c(C)c2c(=O)o1 | Protease | - | Herpes simplex virus 1 | - | - | IC50 | 0.7 µM
Nc1nc(N)c2ncn([C@@H]3O[C@H](COP(=O)(O)O)[C@@H](O)[C@H]3O)c2n1 | DNA polymerase | 2000 µM | Herpes simplex virus 1 | - | - | inhibition | 66.6%
Nc1nc(=O)n([C@@H]2O[C@H](CO)[C@@H](O)[C@@H]2F)cc1/C=C/I | Thymidine kinase | 200 µM | Herpes simplex virus 2 | - | G | inhibition | 0%
Nc1nc(N)c2nnn([C@@H]3O[C@H](COP(=O)(O)O)[C@@H](O)[C@H]3O)c2n1 | DNA polymerase | 2000 µM | Herpes simplex virus 1 | - | - | inhibition | 96.6%
Nc1nc(-c2ccc(NC(=O)CCN(C(=O)c3cccnc3)C3CCc4ccccc43)cc2)cs1 | Helicase-primase | - | Herpes simplex virus 1 | - | F | IC50 | 10 µM
Nc1nc(=O)n([C@@H]2O[C@H](CO)[C@@H](O)[C@@H]2F)cc1I | DTHD kinase | - | Herpes simplex virus 1 | - | KOS | Ki | 1.09 µM
Nc1nc(-c2ccc(NC(=O)CN(Cc3ccncc3)C(=O)C3CCCCC3)cc2)cs1 | Primase | - | Herpes simplex virus 1 | - | - | IC50 | 0.043 µM
Nc1nc2c(ncn2[C@@H]2O[C@H](CO)[C@@H](OP(=O)(O)O)[C@H]2O)c(=O)[nH]1 | DNA polymerase | - | Herpes simplex virus 1 | - | - | IC50 | <2000 µM
CC[C@H](C)[C@H](NC(=O)[C@H](C(C)C)N(C)C(=O)CCc1ccccc1)C(=O)N[C@@H](CC(=O)N1CCCC1)C(=O)N[C@@H](CC(=O)O)C(=O)NCCCC1CCCCC1 | Ribonucleotide reductase | - | Herpes simplex virus 1 | - | - | IC50 | 1.8 µM
Cc1cn([C@@H]2O[C@H](CO)[C@@H](O)[C@@H]2O)c(=O)[nH]c1=O | DTHD kinase | - | Herpes simplex virus 1 | - | KOS | Ki | 2.99 µM
C[C@@H](c1ccccc1)N(CC(=O)Nc1ccc(-c2csc(N)n2)cc1)C(=O)c1ccncc1 | Helicase-primase | - | Herpes simplex virus 1 | - | KOS | IC50 | 3.8 µM
C/C=C/c1cn([C@H]2C[C@H](O)[C@@H](CO)O2)c(=O)[nH]c1=O | Thymidine kinase | 5 µM | Herpes simplex virus 1 | - | C42 | inhibition | 60%
Nc1ccn([C@@H]2O[C@H](COP(=O)(O)O)[C@@H](O)[C@H]2O)c(=O)n1 | DNA polymerase | - | Herpes simplex virus 1 | - | - | IC50 | <2000 µM
Nc1nc(=O)n([C@@H]2O[C@H](CO)[C@@H](O)[C@@H]2F)cc1/C=C/Br | Thymidine kinase | 200 µM | Herpes simplex virus 2 | - | G | inhibition | 0%
Cc1c(NC(=O)OC(C)(C)C)ccc2nc(N(CC(C)C)C(=O)NCc3cccnc3)oc(=O)c12 | Protease | - | Herpes simplex virus 1 | - | - | IC50 | >20 µM
C=Cc1cn([C@@H]2O[C@H](CO)[C@@H](O)[C@@H]2F)c(=O)nc1N | Thymidine kinase | 200 µM | Herpes simplex virus 2 | - | G | inhibition | 0%
C[C@H](NC(=O)OC(C)(C)C)c1nc2ccsc2c(=O)o1 | HSV-2 protease | - | Herpes simplex virus 2 | HPLC | - | IC50 | >10 µM
C/C(=N\NC(=S)NNC(=S)Nc1ccccc1C)c1ccccn1 | Ribonucleotide reductase | - | Herpes simplex virus 1 | - | - | IC50 | >5 µM
CC[C@H](C)[C@H](NC(=O)[C@H](C(C)C)N(C)C(=O)Cc1ccc(O)cc1)C(=O)NC(CC(=O)N(C)CCc1ccccn1)C(=O)N[C@@H](CC(=O)O)C(=O)N[C@@H](CC(C)C)C(=O)O | Ribonucleotide reductase | - | Herpes simplex virus 1 | - | - | IC50 | 29 µM
Nc1nc(=O)n([C@@H]2O[C@H](CO)[C@@H](O)[C@@H]2F)cc1/C=C/C(=O)O | Thymidine kinase | 200 µM | Herpes simplex virus 2 | - | G | inhibition | 0%
Nc1nc(-c2ccc(Cl)cc2)cs1 | Helicase | - | Herpes simplex virus 1 | - | UL5/8/52 | IC50 | 5 µM
O=c1[nH]c(=O)n([C@@H]2O[C@H](CO)[C@@H](O)[C@@H]2F)cc1/C=C/Br | DTHD kinase | - | Herpes simplex virus 2 | - | 333 | Ki | 10.26 µM
Nc1nc2c(ncn2CCC(CO)COP(=O)(O)OP(=O)(O)OP(=O)(O)O)c(=O)[nH]1 | DNA polymerase | - | Herpes simplex virus 2 | - | - | Ki | 9.5 µM
Nc1nc(-c2ccc(NC(=O)CNCc3cccc(F)c3)cc2)cs1 | Helicase-primase | - | Herpes simplex virus 1 | - | KOS | IC50 | 0.5 µM
Cc1c(NC(=O)OC(C)(C)C)ccc2nc(N(CCc3ccccc3)C(=O)NCc3cccnc3)oc(=O)c12 | Protease | - | Herpes simplex virus 1 | - | - | IC50 | 0.7 µM
O=c1[nH]c(=O)n([C@@H]2O[C@H](CO)[C@@H](O)[C@@H]2O)cc1/C=C/Br | Thymidine kinase | 10 µM | Herpes simplex virus 1 | - | C42 | inhibition | 72%
CCN(C(=O)N(C)CCc1ccncc1)c1nc2ccc(NC(=O)OC(C)(C)C)c(C)c2c(=O)o1 | Protease | - | Herpes simplex virus 1 | - | - | IC50 | 0.9 µM
CC[C@@H](N(C)C(=O)[C@@H](NC(=O)[C@@H](CC(=O)[C@@H](NC(=O)[C@H](C(C)C)N(C)C(=O)[C@H](C)[C@@H](C)C1CCCCC1)C(C)(C)C)CC(=O)C(C)(C)C)C1(C(=O)O)CCCC1)C(C)(C)C | Ribonucleotide reductase | - | Herpes simplex virus 1 | - | - | IC50 | 0.191 µM
CC[C@@H](NC(=O)[C@@H](NC(=O)[C@@H](CC(=O)[C@@H](NC(=O)NC1[C@H](C)CCC[C@@H]1C)C(C)(C)C)CC(=O)C(C)(C)C)C1(C(=O)O)CCCC1)C(C)(C)C | Ribonucleotide reductase | - | Herpes simplex virus 1 | radioligand binding / binding | - | IC50 | <0.001 µM
C/C(=N\NC(=S)NNC(=S)Nc1ccc(C)cc1)c1ccccn1 | Ribonucleotide reductase | - | Herpes simplex virus 1 | - | - | IC50 | >5 µM
Nc1nc2c(ncn2[C@@H]2O[C@H](COP(=O)(O)O)[C@@H](O)[C@H]2O)c(=O)[nH]1 | DNA polymerase | - | Herpes simplex virus 1 | - | - | IC50 | >2000 µM
Cc1cn([C@@H]2O[C@H](CO)[C@@H](O)[C@@H]2F)c(=O)[nH]c1=O | DTHD kinase | - | Herpes simplex virus 1 | - | KOS | Ki | 0.59 µM
C/C(=N\NC(=S)NNC(=S)Nc1ccc(C(F)(F)F)cc1)c1ccccn1 | Ribonucleotide reductase | - | Herpes simplex virus 1 | - | - | IC50 | <5 µM
C#C[C@H]1O[C@@H](n2cc(C)c(=O)[nH]c2=O)C[C@@H]1O | Thymidine kinase | - | Herpes simplex virus 2 | - | 333 | Ki | 0.38 µM
C[C@@H]1CCC[C@H](C)C1NC(=O)N[C@H](C(=O)C[C@@H](CC(=O)C(C)(C)C)C(=O)N[C@H](C(=O)NCC(C)(C)C)C1(C(=O)O)CCCC1)C(C)(C)C | Ribonucleotide reductase | - | Herpes simplex virus 2 | radioligand binding / binding | - | IC50 | <0.001 µM
Cc1c(NC(=O)OC(C)(C)C)ccc2nc(N(CCC(C)C)C(=O)N(C)CCc3cccnc3)oc(=O)c12 | Protease | - | Herpes simplex virus 1 | - | - | IC50 | 2 µM
O=c1[nH]c(=O)n([C@@H]2O[C@H](CO)[C@@H](O)[C@@H]2F)cc1/C=C/Cl | Thymidine kinase | 200 µM | Herpes simplex virus 2 | - | G | inhibition | 0%
Cc1c(NC(=O)OC(C)(C)C)ccc2nc(N(CC(C)C)C(=O)NCc3ccncc3)oc(=O)c12 | Protease | - | Herpes simplex virus 1 | - | - | IC50 | >20 µM
C[C@H](NC(=O)NCc1ccccc1)c1nc2ccsc2c(=O)o1 | HSV-2 protease | - | Herpes simplex virus 2 | HPLC | - | IC50 | >10 µM